Experimental findings from patent publication US20130190228A1 are described below.

This experiment has as its target hemagglutinin (HA) of A/PuertoRico/8/34 (PR/8, H1N1) influenza virus (influenza A virus A/PuertoRico/8/34 (H1N1)), P03452. The experiment is described as follows: cell-based or functional assay.
The molecule RRKKAAAAAAAAA (modifications not checked) [SEQ ID NO: 49] displayed a % inhibition of hemagglutination (10 µM peptide, PR/8; 10 µM EB = 100%) of 87.5%.

Regarding RRKKAAVALLPAVL (modifications not checked) [SEQ. ID. NO: 7], the % inhibition of hemagglutination (10 µM peptide, 64 HAU PR/8, vs mock) was found to be 0%. RRKKLLAVLLALLA (modifications not checked) [SEQ ID NO: 44] yielded a % inhibition of hemagglutination (10 µM peptide, 64 HAU PR/8, vs mock) of 95% and an EC50 of hemagglutination inhibition (PR/8, 64 HAU) of 3000 nM. RRKKA (modifications not checked) [SEQ. ID. NO: 16]: the % inhibition of hemagglutination (10 µM peptide, 64 HAU PR/8, vs mock) was 0%. Turning to RRKKLLAP (modifications not checked) [SEQ. ID. NO: 26], the % inhibition of hemagglutination (10 µM peptide, 64 HAU PR/8, vs mock) was 0%. Still for that read-out and setting: the value for RRKKLAP (modifications not checked) [SEQ. ID. NO: 27] was 0%.

In the case of RRKKLAVLLAAAA (modifications not checked) [SEQ ID NO: 56], the % inhibition of hemagglutination (10 µM peptide, PR/8; 10 µM EB = 100%) is 0%. Molecule RRKKAAVALLPA (modifications not checked) [SEQ. ID. NO: 9] came in with a % inhibition of hemagglutination (10 µM peptide, 64 HAU PR/8, vs mock) of 0%. The molecule RRKKALLAP (modifications not checked) [SEQ. ID. NO: 25] had a % inhibition of hemagglutination (10 µM peptide, 64 HAU PR/8, vs mock) of 0%. Same read-out and setting: the value for RRKKAAVA (modifications not checked) [SEQ. ID. NO: 13] was 0%; that for RRKKP (modifications not checked) [SEQ. ID. NO: 29] was 0%. In turn, RRKKLAVAAALLA (modifications not checked) [SEQ ID NO: 55] showed a % inhibition of hemagglutination (10 µM peptide, PR/8; 10 µM EB = 100%) of 0%. The same measure, in the same setting: as for RRKKAAVALLPAVLLALLAP (modifications not checked) [EB peptide (entry blocker)], the figure is 100%.

Consider RRKKLAVLLALLA (modifications not checked) [SEQ. ID. NO: 45], for which the % inhibition of hemagglutination (10 µM peptide, 64 HAU PR/8, vs mock) was 94%; the % inhibition of hemagglutination (10 µM peptide, PR/8; 10 µM EB = 100%) came out at 100%; the EC50 of hemagglutination inhibition (PR/8) is 3000 nM; the EC50 of hemagglutination inhibition (PR/8, 64 HAU) came out at 3000 nM. Regarding RRKKAAVALL (modifications not checked) [SEQ. ID. NO: 11], the % inhibition of hemagglutination (10 µM peptide, 64 HAU PR/8, vs mock) amounted to 0%. For the molecule RRKKVALLAVLLALLA (modifications not checked) [SEQ. ID. NO: 32], the EC50 of hemagglutination inhibition (PR/8, 64 HAU) worked out at 500 nM. In the case of RRKKAAVALLP (modifications not checked) [SEQ. ID. NO: 10], the % inhibition of hemagglutination (10 µM peptide, 64 HAU PR/8, vs mock) is 4%. On to RRKKLLPAVLLALLAP (modifications not checked) [SEQ. ID. NO: 21], for which the % inhibition of hemagglutination (10 µM peptide, 64 HAU PR/8, vs mock) was determined as 94% and the EC50 of hemagglutination inhibition (PR/8, 64 HAU) is 800 nM. For KLAVLLALLA (modifications not checked) [SEQ ID NO: 52], the % inhibition of hemagglutination (10 µM peptide, PR/8; 10 µM EB = 100%) was found to be 25%. Still for that read-out and setting: as for EEDDLAVLLALLA (modifications not checked) [SEQ ID NO: 54], the figure is 0%. On to RRKKAAVALLPAVLL (modifications not checked) [SEQ. ID. NO: 6], for which the % inhibition of hemagglutination (10 µM peptide, 64 HAU PR/8, vs mock) was determined as 0%. In turn, RRKKVLLALLAP (modifications not checked) [SEQ. ID. NO: 23] registered a % inhibition of hemagglutination (10 µM peptide, 64 HAU PR/8, vs mock) of 90% and an EC50 of hemagglutination inhibition (PR/8, 64 HAU) of 4000 nM. Consider RRKKAVALLPAVLLALLAP (modifications not checked) [SEQ. ID. NO: 18], for which the % inhibition of hemagglutination (10 µM peptide, 64 HAU PR/8, vs mock) turned out to be 94% and the EC50 of hemagglutination inhibition (PR/8, 64 HAU) came to 800 nM. In turn, RRKKLAALPLVLAAPLAVLA (modifications not checked) [EBX peptide (scrambled EB control)] gave a % inhibition of hemagglutination (10 µM peptide, 64 HAU PR/8, vs mock) of 0% and a % inhibition of hemagglutination (10 µM peptide, PR/8; 10 µM EB = 100%) of 0%. Molecule RKKLAVLLALLA (modifications not checked) [SEQ ID NO: 50] came in with a % inhibition of hemagglutination (10 µM peptide, PR/8; 10 µM EB = 100%) of 75% and an EC50 of hemagglutination inhibition (PR/8) of 8000 nM. Consider RRKKAAVALLPAV (modifications not checked) [SEQ. ID. NO: 8], for which the % inhibition of hemagglutination (10 µM peptide, 64 HAU PR/8, vs mock) was 0%.

Take RRKKAAVALLPAVLLA (modifications not checked) [SEQ. ID. NO: 5]: the % inhibition of hemagglutination (10 µM peptide, 64 HAU PR/8, vs mock) was 96% and the EC50 of hemagglutination inhibition (PR/8, 64 HAU) came to 2800 nM. In turn, RRKKAAVAL (modifications not checked) [SEQ. ID. NO: 12] showed a % inhibition of hemagglutination (10 µM peptide, 64 HAU PR/8, vs mock) of 0%. On to RRKKVALLPAVLLALLAP (modifications not checked) [SEQ. ID. NO: 19], for which the % inhibition of hemagglutination (10 µM peptide, 64 HAU PR/8, vs mock) came to 94% and the EC50 of hemagglutination inhibition (PR/8, 64 HAU) was found to be 500 nM.

Molecule RRKKAAVALLPAVLLALL (modifications not checked) [SEQ. ID. NO: 3] showed a % inhibition of hemagglutination (10 µM peptide, 64 HAU PR/8, vs mock) of 95% and an EC50 of hemagglutination inhibition (PR/8, 64 HAU) of 600 nM. On the same counts, the results for RRKKALLPAVLLALLAP (modifications not checked) [SEQ. ID. NO: 20] are 94% and 700 nM. For the molecule RRKKAP (modifications not checked) [SEQ. ID. NO: 28], the % inhibition of hemagglutination (10 µM peptide, 64 HAU PR/8, vs mock) was found to be 0%. Same read-out and setting: as for RRKKAALLVLAALAVLA (modifications not checked) [SEQ. ID. NO: 30], the figure is 0%. In turn, RKAVLLALLA (modifications not checked) [SEQ ID NO: 51] had a % inhibition of hemagglutination (10 µM peptide, PR/8; 10 µM EB = 100%) of 50%. RRKKAAV (modifications not checked) [SEQ. ID. NO: 14] registered a % inhibition of hemagglutination (10 µM peptide, 64 HAU PR/8, vs mock) of 0%. Take RRKKAAVALLPAVLLAL (modifications not checked) [SEQ. ID. NO: 4]: the % inhibition of hemagglutination (10 µM peptide, 64 HAU PR/8, vs mock) came to 89% and the EC50 of hemagglutination inhibition (PR/8, 64 HAU) is 3800 nM. RRKKLPAVLLALLAP (modifications not checked) [SEQ. ID. NO: 22] showed a % inhibition of hemagglutination (10 µM peptide, 64 HAU PR/8, vs mock) of 94%; a % inhibition of hemagglutination (10 µM peptide, PR/8; 10 µM EB = 100%) of 100%; an EC50 of hemagglutination inhibition (PR/8, 64 HAU) of 900 nM.

KKLAVLLALLA (modifications not checked) [SEQ ID NO: 53] showed a % inhibition of hemagglutination (10 µM peptide, PR/8; 10 µM EB = 100%) of 0%.

On to RRKKLLALLAP (modifications not checked) [SEQ. ID. NO: 24], for which the % inhibition of hemagglutination (10 µM peptide, 64 HAU PR/8, vs mock) was 0%. RRKKAAVALLAVLLALLA (modifications not checked) [SEQ. ID. NO: 43] had a % inhibition of hemagglutination (10 µM peptide, 64 HAU PR/8, vs mock) of 95% and an EC50 of hemagglutination inhibition (PR/8, 64 HAU) of 1600 nM. For RRKKAA (modifications not checked) [SEQ. ID. NO: 15], the % inhibition of hemagglutination (10 µM peptide, 64 HAU PR/8, vs mock) stood at 0%. For the molecule RRKKAAVALLPAVLLALLA (modifications not checked) [SEQ. ID. NO: 2], the % inhibition of hemagglutination (10 µM peptide, 64 HAU PR/8, vs mock) came out at 94% and the EC50 of hemagglutination inhibition (PR/8, 64 HAU) amounted to 500 nM. In turn, RRKK (modifications not checked) [SEQ. ID. NO: 17] had a % inhibition of hemagglutination (10 µM peptide, 64 HAU PR/8, vs mock) of 0%.
